Test results taken from paper PMC9575645 (Signal Transduction and Targeted Therapy, 2022).

Legend:
[1] = In vivo toxicity in mice (body weight, gross and histopathological organ changes); settings: 10 mg kg^-1 d^-1 atglistatin and 2 mg kg^-1 d^-1 oseltamivir, singly or in combination
[2] = Lung and blood distribution in mice (LC-MS); format: in vivo, C57BL/6J mice; settings: 10 mg kg^-1 d^-1 IP Bid for one day, samples 6 h after last treatment
[3] = Lung and blood distribution in hamsters (LC-MS); format: in vivo, Syrian hamsters; settings: 80 mg kg^-1 d^-1 IP Bid for one day, samples 6 h after last treatment
SARS-CoV-2 KCDC03 strain = tested on: SARS-CoV-2 KCDC03 strain; parameters: species or system Syrian hamsters; settings: hamster, in vivo

SMILES | toxicity, including body weight loss [1] | lung and blood distribution [2] | lung and blood distribution [3] | SARS-CoV-2 genome copy number and infectious progeny production in lungs (SARS-CoV-2 KCDC03 strain) | histological lung lesions (SARS-CoV-2 KCDC03 strain)
CCOC(=O)C1=C[C@@H](OC(CC)CC)[C@H](NC(C)=O)[C@@H](N)C1 [oseltamivir] | no toxicity | – | – | – | –
CN(C)C(=O)Nc1cccc(-c2ccc(N(C)C)cc2)c1 [Atglistatin] | no toxicity | accumulated in the lungs | accumulated in the lungs | Reduction in SARS-CoV-2 genome copy number and infectious progeny production | Amelioration of histological lung lesions
COc1nn(-c2ccc(NC(=O)OCc3ccccc3)c(C)c2)c(=O)o1 [CAY10499] | – | accumulated in the lungs | – | – | –
